Anti-infective test results gathered from many reports (values: NIAID ChemDB through PubChem).

Shared fields: tests in culture

Rows are shuffled and stem from different studies.

Nc1ncnc2c1ncn2[C@@H]1C=C(CO)[C@@H](O)[C@H]1O ; strain: TYPE 1 ; measure: MIC ; species: Reovirus ; value: 0.7 µg/mL
NC(=O)c1nc[nH]c1C(N)=O ; strain: Human isolate ; tested at: 0.032 µg/mL ; measure: inhibition ; cell line: L929 ; species: Cryptosporidium parvum ; value: -14.97%
O=c1[nH]c(=O)n([C@@H]2O[C@H](CO)[C@@H](O)[C@@H]2O)cc1/C=C/Br ; measure: EC50 ; cell line: Primary duck hepatocytes ; read by: antigen ; species: Duck hepatitis B virus ; value: 50 µg/mL
Nc1ccn([C@@H]2C[C@@H](O)[C@H](CO)O2)c(=O)n1 ; measure: EC50 ; cell line: PDH ; species: Duck hepatitis B virus ; value: 0.87 µM
CC1(C)N=C(N)N=C(N)N1c1ccc(Cl)cc1 ; strain: Calf isolate ; tested at: 20 µg/mL ; measure: inhibition ; cell line: L929 ; species: Cryptosporidium parvum ; value: 23.73%
C=C1CC[C@H](O)C/C1=C/C=C1\CCC[C@]2(C)[C@@H]([C@H](C)CCCC(C)C)CC[C@@H]12 ; strain: RH ; tested at: 0.1 µM ; measure: inhibition ; species: Toxoplasma gondii ; value: >50%
Nc1ncnc2c1ncn2[C@@H]1C[C@@H](O)[C@H](CO)O1 ; measure: EC50 ; cell line: CV-1 ; species: Measles virus ; value: >100 µM
S=C(S)N1CCCC1 ; strain: TYPE 14 ; tested at: 31 µM ; measure: inhibition ; cell line: HeLa ; species: Rhinovirus ; value: 15%
CC(=O)N[C@@H](C=O)[C@@H](O)[C@H](O)[C@H](O)C(=O)O ; strain: KOS ; measure: EC50 ; cell line: HeLa ; read by: cytopathic effect ; species: Herpes simplex virus 1 ; value: >200 µg/mL
Nc1nc(N)c2ncn(CCOCP(=O)(O)O)c2n1 ; strain: TYPE 3 ; measure: MIC ; species: Adenovirus ; value: >100 µg/mL
O=c1ccn([C@@H]2CC[C@H](CO)O2)c(=O)[nH]1 ; measure: EC50 ; cell line: Primary duck hepatocytes ; read by: antigen ; species: Duck hepatitis B virus ; value: 50 µg/mL
Cc1c(N2C[C@@H](F)[C@@H](C3(N)CC3)C2)c(F)c(N)c2c(=O)c(C(=O)O)cn([C@@H]3C[C@@H]3F)c12 ; strain: 25 strains (ofloxacin-resistant) ; measure: MIC50 ; species: Staphylococcus aureus ; value: 0.06 µg/mL
CN(C)[C@@H]1C(=O)C(C(N)=O)=C(O)[C@@]2(O)C(=O)C3=C(O)c4c(O)cccc4[C@@](C)(O)[C@H]3[C@H](O)[C@@H]12 ; strain: Calf isolate ; tested at: 20 µg/mL ; measure: inhibition ; cell line: L929 ; species: Cryptosporidium parvum ; value: 30.01%
CO[C@@H]1[C@H](O)[C@@H](C)O[C@@H](OC[C@H]2[C@@H]3O[C@H]3/C=C/C(=O)[C@@](C)(O)C[C@H](C)[C@@H](O[C@@H]3O[C@H](C)C[C@H](OC)[C@H]3O)[C@@H](C)/C=C/C(=O)O[C@@H]2C)[C@@H]1OC ; strain: KOS ; measure: EC50 ; cell line: HeLa ; read by: cytopathic effect ; species: Herpes simplex virus 1 ; value: >200 µg/mL
NC(=O)c1ncn([C@@H]2O[C@H](CO)[C@@H](O)[C@H]2O)n1 ; strain: H336 ; measure: EC50 ; cell line: VERO ; read by: cytopathic effect ; species: Banzi virus ; value: 60 µg/mL
CO[C@H]1O[C@@H](n2ccc(=O)[nH]c2=O)C[C@@H]1N=[N+]=[N-] ; measure: EC50 ; cell line: Primary duck hepatocytes ; read by: antigen ; species: Duck hepatitis B virus ; value: 100 µg/mL
COC1=CC(=O)C[C@@H](C)[C@]12Oc1c(Cl)c(OC)cc(OC)c1C2=O ; strain: KOS ; measure: EC50 ; cell line: HeLa ; read by: cytopathic effect ; species: Herpes simplex virus 1 ; value: >200 µg/mL
CC1(C)C(=O)C(C(=O)C2CCCCC2)=C(O)C(C)(C)C1=O ; strain: Vancomycin-resistant ; measure: MIC ; species: Enterococcus faecalis ; value: 125 µg/mL
C=C[C@H]1CN2CC[C@H]1C[C@H]2[C@H](O)c1ccnc2ccc(OC)cc12 ; strain: KOS ; measure: EC50 ; cell line: HeLa ; read by: cytopathic effect ; species: Herpes simplex virus 1 ; value: >200 µg/mL
C[C@@H]1CN(c2c(F)c(N)c3c(=O)c(C(=O)O)cn(C4CC4)c3c2F)C[C@H](C)N1 ; strain: 25 strains (ofloxacin-resistant) ; measure: MIC50 ; species: Staphylococcus aureus ; value: 8 µg/mL
Cc1c(C)c2c(c(C)c1O)CCC(C)(C(=O)O)O2 ; measure: EC50 ; cell line: HeLa ; species: Rhinovirus ; value: <31 µM
CCCCCCCCCCCC(=O)OC[C@H](COP(=O)([O-])OCC[N+](C)(C)C)OC(=O)CCCCCCCCCCC ; strain: KOS ; measure: EC50 ; cell line: HeLa ; read by: cytopathic effect ; species: Herpes simplex virus 1 ; value: >200 µg/mL
Nc1ccc(S(=O)(=O)Nc2cnc3ccccc3n2)cc1 ; strain: Human isolate ; tested at: 0.8 µg/mL ; measure: inhibition ; cell line: L929 ; species: Cryptosporidium parvum ; value: 79.49%
C[C@H]1NCc2cc(-c3ccc4c(=O)c(C(=O)O)cn(C5CC5)c4c3OC(F)F)ccc21 ; strain: 38 strains (ampicillin-susceptible) ; measure: MIC50 ; species: Haemophilus influenzae ; value: ≤0.004 µg/mL
Nc1ncnc2c1ncn2[C@@H]1C=C(CO)[C@@H](O)[C@H]1O ; strain: OKA ; measure: EC50 ; cell line: HEL ; read by: cytopathic effect ; species: Varicella zoster virus ; value: 1 µg/mL
CCOc1cc(Cc2cnc(N)nc2N)cc(OCC)c1-n1cccc1 ; strain: ATCC 19423 ; measure: MIC ; species: Mycobacterium ulcerans ; value: 0.5 µg/mL
Cc1cn([C@@H]2C[C@@H](O)[C@H](CO)O2)c(=O)[nH]c1=O ; measure: EC50 ; cell line: PDH ; species: Duck hepatitis B virus ; value: 0.18 µM
CC1(C)C(=O)C(C(=O)CCc2ccccc2)=C(O)C(C)(C)C1=O ; strain: Vancomycin-resistant ; measure: MIC ; species: Enterococcus faecalis ; value: 31 µg/mL
C#CC[C@@H](C(=O)N[C@H](/C=C/C(=O)OCC)C[C@@H]1CCNC1=O)n1cccc(NC(=O)c2cc(C)on2)c1=O ; strain: Serotype 17 ; tested at: 0.084 µM ; measure: inhibition ; cell line: H1-HELA ; read by: cytopathic effect / XTT ; species: Rhinovirus ; value: 90%
COc1cc(Cc2cnc(N)nc2N)cc(OC)c1OC ; strain: ATCC 19423 ; measure: MBC ; species: Mycobacterium ulcerans ; value: >32 µg/mL
COc1cc(NC(C)CCCN)c2ncccc2c1 ; setting: 10 d ; tested at: 10 µg/mL ; measure: inhibition ; species: Pneumocystis carinii ; value: 100%
Cc1cn([C@H]2C[C@H](N=[N+]=[N-])[C@@H](CO)O2)c(=O)[nH]c1=O ; strain: Calf isolate ; tested at: 20 µg/mL ; measure: inhibition ; cell line: L929 ; species: Cryptosporidium parvum ; value: 61.17%
Nc1ncnc2c1ncn2CCOCP(=O)(O)O ; measure: MIC ; species: Varicella zoster virus ; value: 10 µg/mL
Nc1nc2c(ncn2COCCOP(=O)(O)C(=O)O)c(=O)[nH]1 ; strain: L2 ; measure: EC95 ; cell line: VERO ; read by: cytopathic effect ; species: Herpes simplex virus 1 ; value: 71.4 µM
Cc1cn([C@H]2C[C@H](N=[N+]=[N-])[C@@H](CO)O2)c(=O)[nH]c1=O ; strain: ROD ; measure: EC50 ; cell line: CEM + CEM-SS ; read by: cytopathic effect / XTT ; species: HIV-2 ; value: 0.005 µM
CNCC1=CC[C@@H](N)[C@@H](O[C@H]2[C@H](O)[C@@H](O[C@H]3OC[C@](C)(O)[C@H](NC)[C@H]3O)[C@H](N)C[C@@H]2N)O1 ; strain: KOS ; measure: EC50 ; cell line: HeLa ; read by: cytopathic effect ; species: Herpes simplex virus 1 ; value: >200 µg/mL
N[C@@H]1CN(c2c(F)cc3c(=O)c(C(=O)O)cn([C@@H]4C[C@@H]4F)c3c2Cl)CC12CC2 ; strain: 25 strains (ofloxacin-resistant) ; measure: MIC50 ; species: Staphylococcus aureus ; value: 1 µg/mL
CCCCCC(=O)C1=C(O)C(C)(C)C(=O)C(C)(C)C1=O ; strain: Vancomycin-resistant ; measure: MIC ; species: Enterococcus faecalis ; value: 31 µg/mL
NC1CCN(c2nc3c(cc2F)c(=O)c(C(=O)O)cn3-c2ccc(F)cc2F)C1 ; strain: 25 strains (ofloxacin-resistant) ; measure: MIC50 ; species: Staphylococcus aureus ; value: 32 µg/mL
CCCCCCCCCC(=O)C1=C(O)C(C)(C)C(=O)C(C)(C)C1=O ; strain: Vancomycin-resistant ; measure: MIC ; species: Enterococcus faecalis ; value: 4 µg/mL
Nc1nc2c(ncn2COC(CO)CO)c(=O)[nH]1 ; measure: EC50 ; cell line: Primary duck hepatocytes ; read by: antigen ; species: Duck hepatitis B virus ; value: 50 µg/mL
CC(C)CC(=O)C1=C(O)C(C)(C)C(=O)C(C)(C)C1=O ; strain: Vancomycin-resistant ; measure: MIC ; species: Enterococcus faecalis ; value: 125 µg/mL
C[C@@H]1CN(c2c(F)c(N)c3c(=O)c(C(=O)O)cn(C4CC4)c3c2F)C[C@H](C)N1 ; strain: 12 ; measure: MIC ; read by: broth dilution ; species: Mycobacterium avium complex ; value: 0.12 µg/mL

The last 6 rows once more:

smiles,setting,strain,tested at,measure,cell line,read by,species,value
CCCCCC(=O)C1=C(O)C(C)(C)C(=O)C(C)(C)C1=O,,Vancomycin-resistant,,MIC,,,Enterococcus faecalis,31 µg/mL
NC1CCN(c2nc3c(cc2F)c(=O)c(C(=O)O)cn3-c2ccc(F)cc2F)C1,,25 strains (ofloxacin-resistant),,MIC50,,,Staphylococcus aureus,32 µg/mL
CCCCCCCCCC(=O)C1=C(O)C(C)(C)C(=O)C(C)(C)C1=O,,Vancomycin-resistant,,MIC,,,Enterococcus faecalis,4 µg/mL
Nc1nc2c(ncn2COC(CO)CO)c(=O)[nH]1,,,,EC50,Primary duck hepatocytes,antigen,Duck hepatitis B virus,50 µg/mL
CC(C)CC(=O)C1=C(O)C(C)(C)C(=O)C(C)(C)C1=O,,Vancomycin-resistant,,MIC,,,Enterococcus faecalis,125 µg/mL
C[C@@H]1CN(c2c(F)c(N)c3c(=O)c(C(=O)O)cn(C4CC4)c3c2F)C[C@H](C)N1,,12,,MIC,,broth dilution,Mycobacterium avium complex,0.12 µg/mL

MIC50, MIC90 and the like: level of inhibition, or share of isolates inhibited. Inhibition is in % at the dose shown (toxicity tests: loss of growth or viability). Blank or dashed fields: not listed here. ECn is the concentration giving n% inhibition of infection, replication or growth.